Data published in ChEMBL document CHEMBL3596191, “Inhibition studies of bacterial, fungal and protozoan β-class carbonic anhydrases with Schiff bases incorporating sulfonamide moieties” (Bioorg Med Chem, 2015).

Legend:
[1] = Selectivity ratio of Ki for human alpha-carbonic anhydrase 1 to Ki for Brucella suis beta-carbonic anhydrase 2
[2] = Selectivity ratio of Ki for human alpha-carbonic anhydrase 1 to Ki for Leishmania donovani chagasi beta-carbonic anhydrase
[3] = Selectivity ratio of Ki for human alpha-carbonic anhydrase 2 to Ki for Brucella suis beta-carbonic anhydrase 2
[4] = Selectivity ratio of Ki for human alpha-carbonic anhydrase 2 to Ki for Brucella suis beta-carbonic anhydrase 1
[5] = Selectivity ratio of Ki for human alpha-carbonic anhydrase 1 to Ki for Cryptococcus neoformans var. grubii beta-carbonic anhydrase
[6] = Selectivity ratio of Ki for human alpha-carbonic anhydrase 2 to Ki for Leishmania donovani chagasi beta-carbonic anhydrase
[7] = Selectivity ratio of Ki for human alpha-carbonic anhydrase 2 to Ki for Cryptococcus neoformans var. grubii beta-carbonic anhydrase
[8] = Selectivity ratio of Ki for human alpha-carbonic anhydrase 1 to Ki for Brucella suis beta-carbonic anhydrase 1

## CC(=O)Nc1nnc(S(N)(=O)=O)s1
[1]
  Ratio Ki: 0.8
[2]
  Ratio Ki: 2.7
[3]
  Ratio Ki: 0.04
[4]
  Ratio Ki: 0.2
[5]
  Ratio Ki: 23.8
[6]
  Ratio Ki: 0.1
[7]
  Ratio Ki: 1.1
[8]
  Ratio Ki: 4
